Test results published in article PMC8765781, “A platform of assays for the discovery of anti-Zika small-molecules with activity in a 3D-bioprinted outer-blood-retina model” (PLoS ONE, 2022).

Legend:
[1] = system: WNV (Kern515/WN02); assay: NIAID flavivirus panel, neutral red CPE assay in Vero cells: WNV
[2] = system: YFV (YFV 17D); assay: NIAID flavivirus panel, neutral red CPE assay in Vero cells: YFV
[3] = system: DENV (Dengue virus type 2, strain New Guinea C); assay: NIAID flavivirus panel, neutral red CPE assay in Vero cells: DENV
[4] = system: ZIKV; assay: NIAID flavivirus panel, neutral red CPE assay in Vero cells: ZIKV
[5] = system: wild-type ZIKV (Ugandan MR766 strain) in Vero cells; assay: ZIKV cytopathic effect (CPE) inhibition qHTS assay, CellTiter-Glo readout; format: cell-based, Zika virus
[6] = system: caspase-3 activity induced by ZIKV in Vero cells; assay: Caspase-Glo 3/7 assay in ZIKV-infected Vero cells; format: cell-based; conditions: read-out: Caspase 3 (ZIKV Antiviral Assays), IC50, 48 hr, unit inferred
[7] = system: ZIKV-RLuc (Cambodian strain FSS13025); assay: Recombinant ZIKV-RLuc (Renilla luciferase reporter) assay in Vero cells; format: cell-based, Zika virus
[8] = system: ZIKV-mCherry (Cambodian strain FSS13025); assay: ZIKV-mCherry reporter imaging assay in Vero cells; format: cell-based, Zika virus

## CC1=C[C@H]2O[C@@H]3[C@H](O)C[C@](C)([C@@]2(CO)[C@H](O)C1=O)[C@]31CO1 [NCGC00180572-02, vomitoxin]
[1]; Table 1, Vero cells
  Selectivity Index WHV (CC50/EC50): 3
[1]; Table S1, Vero cells
  SI value WHV (CC50/EC50): 2.7
[2]; Table 1, Vero cells
  Selectivity Index YFV (CC50/EC50): 3
[2]; Table S1, Vero cells
  SI value YFV (CC50/EC50): 3
[3]; Table 1, Vero cells
  Selectivity Index DENV (CC50/EC50): 9
[3]; Table S1, Vero cells
  SI value DENV (CC50/EC50): 9
[4]; Table 1, Vero cells
  Selectivity Index ZIKV (CC50/EC50): 34
[4]; Table S1, Vero cells
  SI value ZIKV (CC50/EC50): 34

## CC1=CC2OC3CC(O)[C@](C)([C@@]2(C)C(O)C1=O)[C@]31CO1 (stereo partly drawn)
[5]
  IC50: 2310 nM
[5]; curve class v2 (Inglese et al. 2006)
  CC-v2 (curve class classification of the dose response curve): -1.2
[5]; difference between neutral response and compound response for highest compound concentration
  Max Resp: -59.481
[5]; difference between neutral response and maximum compound response
  Efficacy: -64.662
[5]; from Hill fit of the response curve, 50% of maximum activity response, 194 cherry-picked compounds, protocol name not given
  AC50: 2310 nM
[5]; potency in log units (Molar) from Hill fit of the response curve, 194 cherry-picked compounds, protocol name not given
  Log AC50 (M): -5.6362 M
[6]
  IC50: 2340 nM
[7]
  IC50: 2610 nM
[8]
  CC-v2 (curve class of the dose response curve): -1.2
  Efficacy (difference between neutral response and maximum compound response): -58.388
  Max Resp (difference between neutral response and response at highest compound concentration): -99.093
[8]; Hill fit
  AC50: 1680 nM
[8]; log units of molar potency from Hill fit (negative values)
  Log AC50 (M): -5.7741 M
